In PMC5404824, “Engineering Nucleotide Specificity of Succinyl-CoA Synthetase in Blastocystis: The Emerging Role of Gatekeeper Residues” (Biochemistry, 2016):

Test system: Nc1ncnc2c1ncn2[C@@H]1O[C@H](COP(=O)(O)OP(=O)(O)OP(=O)(O)O)[C@@H](O)[C@H]1O
Test: purified protein
Details: 129 μM CoA, 10 mM succinate, 50 mM KCl, 10 mM MgCl2, 50 mM Tris-HCl pH 7.4, 30 nM enzyme
[1] = Km above highest substrate concentration used (Figure 5 legend)

## Blastocystis SCS (succinyl-CoA synthetase, SCSα + SCSβ) (Blastocystis sp. ATCC 50177/Nand II; K128D/K60E)
  Km: 230 ± 34 µM
  kcat: 0.0176 s⁻¹
  kcat/Km: 76 M⁻¹ s⁻¹

## Blastocystis SCS (succinyl-CoA synthetase, SCSα + SCSβ) (Blastocystis sp. ATCC 50177/Nand II; L241F/V127L)
[1]
  Km: 265 ± 50 µM
  kcat: 0.0177 s⁻¹
  kcat/Km: 66 M⁻¹ s⁻¹
